Test results as given in PMC9146215, “Design of D-Amino Acids SARS-CoV-2 Main Protease Inhibitors Using the Cationic Peptide from Rattlesnake Venom as a Scaffold” (Pharmaceuticals, 2022).

Tests used:
[1] = tested on: Vero CCL-81 cells; assay: MTT cell viability assay; format: cell-based, African green monkey; conditions: n = 3
Description: Therefore, Vero cells were cultivated in DMEM medium supplemented with 2% fetal calf serum (FCS) and 1% penicillin/streptomycin. A total of 2000 cells per well in a volume of 100 µL were seeded on flat-bottomed 96-well plates (VWR, Radnor, USA) and incubated in a 95% humidified atmosphere with 5% CO2 at 37 °C for 24 h. Subsequently, the cells were treated with 0.2, 1, 5, 10, 25, 50, and 98 µM of each molecule at 37 °C with 5% CO2 for 24 h.
According to the manufacturer’s instructions, cell viability was measured using the Cell Proliferation Kit I (Roche, Basel, Switzerland) in a 3-fold determination. The absorbance of the formazan product was determined by measuring the absorption at 570 nm and subtracted by the absorbance at 690 nm in a microplate reader (BMG Labtech, Ortenberg, Germany). The results were normalised to the mean value of cells treated with medium only. As a […] control for cytotoxicity, 0.1% Triton X-100 diluted in the medium was used. Cell viability was calculated according to Equation (2):(T/C) × 100%(2) where T and C represented the optical density of the treated well and control groups, respectively.

[2] = target: T1, SARS-CoV-2 3CL^pro (Severe acute respiratory syndrome coronavirus 2, UniProt P0DTD1); assay: Inhibitor stability over 24 h (24 h inhibition experiment); format: biochemical; conditions: 0.5 µM 3CLpro with 5 µM peptide, 1/2 h to 24 h at RT, triplicate
T1 construct: SARS-CoV-2 3CL^pro (Uniprot entry: P0DTD1, virus strain: hCoV-19/Wuhan/WIV04/2019) was cloned, expressed, and purified; GST (cleaved yes); made in house; host or cells: E. coli Lemo21 (DE3)
Description: Briefly, 0.5 µM SARS-CoV-2 3CL^pro was incubated with 5 µM of the peptide and incubated for 1/2 h, 1 h, 2 h, 3 h, 4 h, 5 h, and 24 h at RT. The control was performed with the 3CL^pro in the absence of the peptide and measured together after each time point. Subsequently, the reaction was initiated by the addition of the substrate. All measurements were performed in triplicate, and data are presented as mean ± SD.

[3] = tested on: SARS-CoV-2 B1.1 isolate (NRW-42) in Vero cells; format: cell-based
[4] = target: T1, SARS-CoV-2 3CL^pro; assay: Determination of inhibition mode (Lineweaver-Burk plot); format: biochemical; conditions: 0.5 µM 3CLpro, 30 min incubation at RT, triplicate
Description: The inhibition mode was determined using different final concentrations of the inhibitors and substrate. […] The remaining L-peptides were not tested.
Briefly, 0.5 µM SARS-CoV-2 3CL^pro was incubated with the inhibitor, in various concentrations, for 30 min at RT. Subsequently, the reaction was initiated by adding the corresponding concentration series of the substrate. The data were analysed using a Lineweaver-Burk plot; therefore, the reciprocal of velocity (1/V) vs the reciprocal of the substrate concentration (1/[S]) was compared. All measurements were performed in triplicate, and data are presented as mean ± SD.

[5] = target: T1, SARS-CoV-2 3CL^pro; assay: Detergent-based (Triton X-100) control assay for aggregation-based promiscuous inhibition; format: biochemical; conditions: 0.001%, 0.01%, 0.1% Triton X-100; four peptide concentrations; triplicate
Description: A detergent-based control assay was performed to exclude inhibitors that possibly act as aggregators of the 3CL^pro by adding 0.001%, 0.01%, and 0.1% of Triton X-100 to the reaction. […] All measurements were performed in triplicate, and data are presented as mean ± SD.

[6] = target: T1, SARS-CoV-2 3CL^pro; assay: SARS-CoV-2 3CLpro fluorogenic (DABCYL/EDANS substrate) inhibition assay; format: biochemical; conditions: dose-dependent study, 0.5 µM 3CLpro, n = 3
Description: The SARS-CoV-2 3CL^pro activity assay was performed using DABCYL-KTSAVLQ/SGFRKME-EDANS (Bachem, Switzerland) as substrate.
SARS-CoV-2 3CL^pro activity assay was performed using a fluorogenic substrate DABCYL-KTSAVLQ↓SGFRKME-EDANS (Bachem, Bubendorf, Switzerland) in a buffer containing 20 mM Tris pH 7.2, 200 mM NaCl, 1 mM EDTA, and 1 mM TCEP [31, 32, 33, 34]. The reaction mixture was pipetted in a Corning 96-well plate (Merck, Darmstadt, Germany) containing 0.5 µM protein. The assay was initiated with the addition of the substrate at a final concentration of 50 µM. The fluorescence intensities were measured at 60 s intervals over 30 min using an Infinite 200 PRO plate reader (Tecan, Männedorf, Switzerland), and the temperature was set to 37 °C. […]
For the final inhibition assays, 0.5 µM of the protein was mixed with 0–300 µM Cro, 0–150 µM L-CDPs, and 0–125 µM D-CDPs and subsequently incubated for 30 min at RT. […] When the substrate with a final concentration of 50 µM was added to the mixture, the fluorescence intensities were measured at 60 s intervals over 30 min using an Infinite 200 PRO plate reader (Tecan, Männedorf, Switzerland). […]
The IC50 value was calculated by plotting the initial velocity against various concentrations of the combined molecules using a dose-response curve in GraphPad Prism5 software (Tecan, Männedorf, Switzerland). […]

`COC(=O)[C@@H](CCCCN)NC(=O)[C@@H](CCCCN)NC(=O)[C@@H](CS)NC(=O)[C@@H](CO)NC(=O)[C@@H](CCCCN)NC(=O)[C@@H](Cc1c[nH]c2ccccc12)NC(=O)[C@@H](CCCNC(=N)N)NC(=O)[C@@H](Cc1c[nH]c2ccccc12)NC(=O)[C@@H](CCCNC(=N)N)NC(=O)[C@@H](CS)NC(=O)[C@@H](CC(=O)O)NC(=O)[C@@H](CCSC)NC(=O)[C@@H](CCCCN)NC(C)=O` [D-CDP7] was tested, and the “Cytotoxic effect at the calculated IC50 concentrations” value [1] was “no cytotoxic effect”, the “Inhibition of SARS-CoV-2 3CLpro over 24 h (stability of inhibitor)” value [2] was “constant inhibition” and the “Viral RNA in cell culture supernatant” value [3] was “significant decrease in viral RNA”. The “Inhibition Type” value [4] was “Competitive” and the “Aggregation-based inhibition (inhibition diminished by detergent)” value [5] was “not observed”.

With `COC(=O)[C@H](CCCCN)NC(=O)[C@H](CCCCN)NC(=O)[C@H](CS)NC(=O)[C@H](CO)NC(=O)[C@H](CCCCN)NC(=O)[C@H](Cc1c[nH]c2ccccc12)NC(=O)[C@H](CCCNC(=N)N)NC(=O)[C@H](Cc1c[nH]c2ccccc12)NC(=O)[C@H](CCCNC(=N)N)NC(=O)[C@H](CS)NC(=O)[C@H](CC(=O)O)NC(=O)[C@H](CCSC)NC(=O)[C@H](CCCCN)NC(C)=O` [L-CDP7] the “Inhibition of SARS-CoV-2 3CLpro over 24 h (stability of inhibitor)” value [2] was “constant inhibition”, the “Inhibition Type” value [4] was “Competitive” and the “Aggregation-based inhibition (inhibition diminished by detergent)” value [5] was “not observed”.

In the case of `COC(=O)[C@H](CCCCN)NC(=O)[C@H](CCCCN)NC(=O)[C@H](CO)NC(=O)[C@H](CS)NC(=O)[C@H](CCCCN)NC(=O)[C@H](Cc1c[nH]c2ccccc12)NC(=O)[C@H](CCCNC(=N)N)NC(=O)[C@H](Cc1c[nH]c2ccccc12)NC(=O)[C@H](CCCNC(=N)N)NC(=O)[C@H](CS)NC(=O)[C@H](CC(=O)O)NC(=O)[C@H](CCSC)NC(=O)[C@H](CCCCN)NC(C)=O` [L-CDP8], the “Inhibition Type” value [4] is reported as “Competitive” and the “Concentration giving 100% protease inhibition” value [6] is reported as 60 µM.
